Tested on: intracellular L. donovani in THP-1 macrophage host cells
Assay: THP-1 macrophage infection assay: anti L. donovani activity
Details: L. donovani in THP-1 macrophages

Row | SMILES | reduction in antiparasitic activity compared to compound 1 [fold] | other results
1 | O=C(Cc1nc2ccccc2s1)NNC(=O)c1ccc2ccccc2n1 [Compound 5b] | > 3 | 
2 | O=C(Cc1nc2ccccc2o1)NNC(=O)c1ccc2ccccc2n1 [Compound 5c, N′-(2-(Benzo[d]oxazol-2-yl)acetyl)quinoline-2-carbohydrazide] | > 25 | 
3 | Cn1c(CC(=O)NNC(=O)c2ccccn2)nc2ccccc21 [Compound 13b, N′-(2-(1-Methyl-1H-benzo[d]imidazole-2-yl)acetyl)picolinohydrazide] | ~23 | 
4 | Cn1c(CC(=O)NNC(=O)c2cccc(-c3ccccc3)n2)nc2ccccc21 [Compound 13d, N′-(2-(1-Methyl-1H-benzo[d]imidazole-2-yl)acetyl)-6-phenylpicolinohydrazide] |  | lower antiparasitic activity than analogue 13e: > 10 fold
5 | Cc1ccc(-c2ccc(C(=O)NNC(=O)Cc3nc4ccccc4n3C)nc2)cc1 [Compound 17k, N′-(2-(1-Methyl-1H-benzo[d]imidazole-2-yl)acetyl)-5-(p-tolyl)picolinohydrazide] |  | increased activity against L. donovani compared to 1: ~10 fold

From paper PMC11375810, “Novel Diacyl-hydrazide Compounds as Potential Therapeutics for Visceral Leishmaniasis” (ACS Omega, 2024)
